US5902814A, “Spiro-Azabicyclic Compounds useful in therapy” (dated 1999)

Protein sequences, listed by entry. Tags and fused reporters are not part of them. Lines headed by an entry give the natural chain unless they say otherwise; changes in a name come on top.
UniProt Q05941: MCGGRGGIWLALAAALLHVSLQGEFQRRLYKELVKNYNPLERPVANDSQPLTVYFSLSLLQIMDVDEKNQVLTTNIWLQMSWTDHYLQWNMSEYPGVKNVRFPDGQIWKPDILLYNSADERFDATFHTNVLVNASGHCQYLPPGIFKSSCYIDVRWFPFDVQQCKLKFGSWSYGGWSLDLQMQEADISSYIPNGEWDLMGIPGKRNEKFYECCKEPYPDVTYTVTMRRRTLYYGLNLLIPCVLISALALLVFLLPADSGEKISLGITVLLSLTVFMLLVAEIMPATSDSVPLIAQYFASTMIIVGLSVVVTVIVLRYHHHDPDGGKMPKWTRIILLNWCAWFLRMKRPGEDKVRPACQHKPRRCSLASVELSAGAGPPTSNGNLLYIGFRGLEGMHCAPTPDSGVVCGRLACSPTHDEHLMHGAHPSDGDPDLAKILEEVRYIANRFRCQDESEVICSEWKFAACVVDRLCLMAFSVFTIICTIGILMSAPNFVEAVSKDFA

Target: α7 nAChR subtype (Rattus norvegicus, UniProt Q05941)
Experiment: Test A: 125I-α-Bungarotoxin (BTX) binding to rat hippocampal membranes (affinity at α7 nAChR subtype)
Conditions: radioligand saturation curve, one site model (ENZFITTER)

^125 I-α-Bungarotoxin gave a Kd of 1.67 nM.
